Test results as given in patent US8709743B2, “Inhibitors of bacterial nitric oxide synthase, and related screening methods” (Massachusetts Institute of Technology, priority 2007, dated 2014).

Experiment: Fluorescence quantum yield
Format: physicochemical

| Compound | quantum yield (Φ) |
| --- | --- |
| Cc1ccc2cccc(NCc3c(O)ccc4c(-c5ccccc5C(=O)O)c5cc(Cl)c(=O)cc-5oc34)c2n1 [FL5, 2-{2-chloro-6-hydroxy-5-[(2-methyl-quinolin-8-ylamino)-methyl]-3-oxo-3H-xanthen-9-yl}-benzoic acid] | 0.077±0.002 |
| Cc1ccc2cccc(N(Cc3c(O)ccc4c(-c5ccccc5C(=O)O)c5cc(Cl)c(=O)cc-5oc34)N=O)c2n1 [FL5-NO, 2-{2-chloro-6-hydroxy-5-[((2-methylquinolin-8-yl)(nitroso)amino)-methyl]-3-oxo-3H-xanthen-9-yl}-benzoic acid] | 0.58±0.02 |
